The record followed here is doi:10.1101/2022.11.09.515855.

For the data set, the target named is T1, Gac (C-terminal domain of GyrA, recombinant) (Borrelia burgdorferi B31) (UniProt O51396).
T1 sequence: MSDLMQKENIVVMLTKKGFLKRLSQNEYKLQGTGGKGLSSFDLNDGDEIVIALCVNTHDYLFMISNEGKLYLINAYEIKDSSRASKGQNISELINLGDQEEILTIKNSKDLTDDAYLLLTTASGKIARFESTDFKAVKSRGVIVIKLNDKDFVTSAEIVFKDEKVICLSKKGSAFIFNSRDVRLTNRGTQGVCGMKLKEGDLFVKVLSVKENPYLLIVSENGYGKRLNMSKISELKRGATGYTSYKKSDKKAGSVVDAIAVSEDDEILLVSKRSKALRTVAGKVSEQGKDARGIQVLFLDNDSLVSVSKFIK
Nature of the data set: EMSA. To be noted: 10 nM probe, 25 nM Gac; probe letters rebuilt from the primers and the genome. Background: In EMSA bound probe runs differently from free probe, usually more slowly.

The exact form of at least one protein or probe is not confirmed.

In the case of “ATATATGGATCCTCCTTTTTATTTATGAATTATTAGTCCAACAATTTTGTTTTTCAATTTTTTATTTGAAAAAATAATTTTTTCAAATTCTTCAATATCTTGAATAAATATTGAAGAATTTGAAAAATATTGTCTTAATTTGATTTTAAAATCGACATAAGCAAAGCCAAATATGCGGTACCATATAT (double strand) [B31 ospC operator/promoter probe]”, the binding result is recorded as “binds”.
